Assay results: CN117069831A

Experiments:
所有突变型S1抗原或spike [1] = experiment: SPR, Biacore T200; reference is the monovalent nanobody (Example 7, Table 4)
所有突变型S1抗原或spike [2] = experiment: ELISA on coated antigen; reference is the monovalent nanobody
所有突变型S1抗原或spike [3] = experiment: SPR, Biacore T200, antigen coupled to CM5 chip, R-30-FC as analyte
所有突变型S1抗原或spike [4] = experiment: SPR, Biacore T200; reference is the positive control antibody (北京百普赛斯)
所有突变型S1抗原或spike [5] = experiment: ELISA on coated antigen, anti human IgG HRP

B1: R-30-FC (Fc fusion)
chain: QVQLQESGGGLVQSGGSLRLSCTASGGIIRLNSMGWYRQAPGKQREPVATIVSDVGTNYADSVKGRFTISRDNAKNTIYLQMNSLKFEDTAVYYCVADRAFVLRGEYEYWGQGTQVTVSS[human IgG1 Fc skipped]
fold improvement of affinity constant over the monovalent nanobody (所有突变型S1抗原或spike [1]): 20 fold
fold improvement of EC50 over the monovalent nanobody (所有突变型S1抗原或spike [2]): 20 fold
Kd (所有突变型S1抗原或spike [3]): 1 pM
fold higher affinity than the positive control (所有突变型S1抗原或spike [4]): 10 fold
EC50 (所有突变型S1抗原或spike [5]): < 100 pM
